Human monoclonal antibodies against the spike receptor-binding domain (heavy:light variable regions). IC50 against pseudoviruses bearing the spike of naturally observed variants; lower = stronger; >10 µg/ml means not reached at the top dose. No active / inactive call. The stated detection limit is 0.0005 µg/ml; values near or below 0.001 µg/ml lie at the floor of the assay.
B1: BD57-022 (protein)
chain 1: QMQLVQSGPEVKKPGTSVKVSCKASGFTFSSSAVQWVRQARGQRLEWIGWIVVGSGNTNYTQKFQERVTITRDMSTSTAYMELNSLRSEDTAVYYCAAPSCSRTICFDGFDMWGQGTMVTVSS
chain 2: EIVLTQSPGSLSLSPGERATLSCRASQSVRSSYLAWYQQKPGQAPRLLIYGASSRATGIPDRFSGSGSGTDFTLTISRLEPEDFVVYFCQQYGRSPWTFGQGTRVEIK
B2: BD57-024 (protein)
chain 1: EVQLVESGGGLIQPGGSLRLSCAVSGLTVSSNYMSWVRQAPGKGLEWVSTIFSGGSTFYADSVKGRFTISRDSSKNTLFFQMNSLRAEDTAVYYCARDLGMVGGTDQWGQGTLVTVSS
chain 2: EIVMTQSPATLSVSPGERATLSCRASQSVSSNLAWYQQKPGQAPRLLIYGASTRATGIPARFSGNGSGTEFTLTISSLQSEDFAVYYCQQYNNWPPGYTFGQGTKLEIK
B3: BD57-041 (protein)
chain 1: EVQLVESGGGLVQPGRSLRLSCAASGFTFEDYAMHWVRQVSGKGLEWVSGTTWNSGTIGYADSVKGRFIISRDNAKNSLYLQMNSLRVEDTALYYCVKDMYLVEEGIAVAEFAFDIWGQGTVVTVSS
chain 2: SYELTQPPSVSVSPGQTARITCSADALPKKYAYWYQQRPGQAPVLVIYKDSERPSGIPERFSGSSSGTRVTLTISGVQAEDEADYYCQSADSSGTDVVFGGGTKLTVL
B4: BD57-045 (protein)
chain 1: EVQLVESGGGLVQPGRSLRLSCAASGFNFHDYAMHWVRQVPGKGLEWVSSISWDSRSIDIADSVKGRFTISRDNGKNSLYLQMNSLSAEDTAFYYCVKSRGYETLTGADYFEYWGQGTLVSVSS
chain 2: EIVLTQSPGTLSLSPGERATLSCRASQSVTSTFLAWYQQKPGQAPRLLIYDASSRATGIPDRFSGSGSGTDFTLTISRLEPEDFAVYYCQQYGSSPSITFGQGTRLDIK
B5: BD57-076 (protein)
chain 1: QVQLQESGPGLVRPSGTLSLTCAVSGGSISSIYWWTWVRQPPGKGLEWIGEIFHGGSTNYNPSLKSRVTISVDKSKNQFSLNLSSVTAADTAVYYCASVAQVAVVDYWGQGTLVTVSS
chain 2: QSALTQPASVSGSPGQSITISCTGTSSDVGRYNYISWYQQHPGKAPKLMIYDVSNRPSGVSNRFSGSKSGNTASLTISGLQAEDEADYYCSSYTSSNTPYVFGTGTKVTVL
B6: BD57-077 (protein)
chain 1: QVQLVESGGGVVQTGRSLRLSCAASGFTFSRFAMHWVRQAPGKGLEWVAVISFDGNNKYYADSVKGRFTISRDNSMNALFLQMNSLRAEDTSVYYCAKGSYYGSGSYFNPLPNFDFWGQGTLVTVSS
chain 2: QSVLTQPPSASGTPGQRVTISCSGSTSNIGSNTVNWYQQLPGTAPKLLIYSYNQRPSGVPDRFSGSKSGTSASLAISGLQSEDEADYYCLAWDDSLYAWVFGGGTKLTVL

What follows are binders tested against SARS-CoV-2 Omicron BA.1 spike pseudovirus (assay: pseudovirus neutralization IC50; higher = weaker neutralization).
Experimental: (§1)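 Single-round VSV luciferase pseudovirus mixed with antibody dilutions for 1 h and put on Huh-7 cells for about a day; IC50 from the dose curve.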

Binder | pseudovirus neutralization IC50
B1 | 0.0463 µg/mL
B2 | 0.0103 µg/mL
B3 | 0.0308 µg/mL
B4 | 0.001 µg/mL
B5 | > 10 µg/mL
B6 | 0.0482 µg/mL

The binders below were run against SARS-CoV-2 Omicron BA.2 spike pseudovirus in the same assay as above.
Experimental: as §1

Binder | pseudovirus neutralization IC50
B1 | 0.0423 µg/mL
B2 | 0.00809 µg/mL
B3 | 0.0321 µg/mL
B4 | 0.00063 µg/mL
B5 | > 10 µg/mL
B6 | 0.0206 µg/mL

Each binder was assayed against SARS-CoV-2 Omicron BA.2.75 spike pseudovirus in the same assay as above.
Experimental: as §1

Binder | pseudovirus neutralization IC50
B1 | 0.00108 µg/mL
B2 | 0.00806 µg/mL
B3 | 0.0231 µg/mL
B4 | 0.00109 µg/mL
B5 | > 10 µg/mL
B6 | 0.00468 µg/mL

What follows are binders tested against SARS-CoV-2 Omicron BA.5 spike pseudovirus in the same assay as above.
Experimental: as §1

Binder | pseudovirus neutralization IC50
B1 | 4.27 µg/mL
B2 | 0.00908 µg/mL
B3 | 1.75 µg/mL
B4 | 0.000716 µg/mL
B5 | > 10 µg/mL
B6 | > 10 µg/mL

The binders below were run against SARS-CoV-2 Omicron BQ.1.1 spike pseudovirus in the same assay as above.
Experimental: as §1

Binder | pseudovirus neutralization IC50
B1 | > 10 µg/mL
B2 | > 10 µg/mL
B3 | > 10 µg/mL
B4 | 4.04 µg/mL
B5 | > 10 µg/mL
B6 | > 10 µg/mL

The binders below were run against SARS-CoV-2 Omicron XBB spike pseudovirus in the same assay as above.
Experimental: as §1

Binder | pseudovirus neutralization IC50
B1 | > 10 µg/mL
B2 | 0.925 µg/mL
B3 | 0.635 µg/mL
B4 | > 10 µg/mL
B5 | > 10 µg/mL
B6 | > 10 µg/mL

What follows are binders tested against SARS-CoV-2 early D614G spike pseudovirus in the same assay as above.
Experimental: as §1

Binder | pseudovirus neutralization IC50
B1 | 0.001 µg/mL
B2 | 0.00421 µg/mL
B3 | 0.0285 µg/mL
B4 | 0.001 µg/mL
B5 | > 10 µg/mL
B6 | 0.00568 µg/mL
